Here are results for one molecule from PMC5390082 (Scientific Reports, 2015).

The assay deals with T1, Trifunctional enzyme (TFP), ECHA/ECHB, immunopurified from human macrophage extract (human (endogenous in THP-1), UniProt P40939 37-763; P55084 34-474).
T1 construct: also called immunopurified human TFP
The assay can be described thus: SPR. Background: Surface plasmon resonance follows binding to a sensor surface in real time, without labels.

B1: Mycobacterium tuberculosis protein tyrosine phosphatase PtpA D126A (enzyme)
chain: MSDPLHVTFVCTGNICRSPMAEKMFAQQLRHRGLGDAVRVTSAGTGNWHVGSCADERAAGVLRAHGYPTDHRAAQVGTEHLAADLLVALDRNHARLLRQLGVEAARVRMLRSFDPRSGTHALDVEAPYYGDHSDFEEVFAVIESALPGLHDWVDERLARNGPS
B1: the binding result was “binds”.
